This note sets out measurements from publication PMC9867676.

By UniProt entry, the sequences of proteins in these tests, tags left out. Where a name states a change or a piece, a line headed by the entry shows the natural chain unless it says otherwise.
UniProt Q7A1N5: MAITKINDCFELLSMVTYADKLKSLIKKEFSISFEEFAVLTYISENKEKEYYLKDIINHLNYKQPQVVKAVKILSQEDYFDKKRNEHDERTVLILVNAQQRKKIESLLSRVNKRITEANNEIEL

The exact form of at least one protein or probe is not confirmed.

In the data set the target is SarA (UniProt Q7A1N5). As to the kind of experiment: EMSA. The note with it: 1 fmol probe, increasing SarA, 50 mM Tris-HCl, 300 mM NaCl, pH 8.0 ([…], room temperature, recombinant protein, label: FAM (reverse primer P-rinA-FAM-R), probe letters rebuilt from the primers and the genome. Background: A gel shift assay detects complexes by their altered migration in electrophoresis.

In the case of “GAATACCCTCCGTACAAATATGTTTAATCTTCAAAGTGTCTCAATCTACTTCTTAATATCTCTATCTCTCGCTCTTTAACTTTTACATCACCTTTTAACTGTTCCGCTTGTAACATCACACCAAACAATAAGATGACTAGTAATATAATTGCTATGATTAACCACATCATCTACTCCGAC (double strand) [rinA promoter fragment (FAM)]”, the binding result was “binds”.
